Results of unrelated studies side by side (data: NIAID ChemDB).

Shared fields: cytotoxicity tests; cell line: MT-4; measure: CC50

Blank or dashed fields: not listed here. CCn is the concentration with n% toxicity to the cells. Conditions beyond the fields shown may differ between rows.

| compound | read by | result |
|---|---|---|
| Cc1cn([C@H]2C[C@H](N=[N+]=[N-])[C@@H](CO)O2)c(=O)[nH]c1=O | MTT | >93.55 µM |
| O=c1[nH]cnc2c1ncn2[C@H]1CC[C@@H](CO)O1 | MTT | >211 µM |
| COc1cc(/C=C/c2cc[n+]3c(c2)-c2c(c(C)c(C)c4c2-c2cc(/C=C/c5cc(OC)c(OC)cc5COc5ccccc5)cc[n+]2CC4)CC3)c(COc2ccccc2)cc1OC.O=S(=O)([O-])C(F)(F)F.O=S(=O)([O-])C(F)(F)F | absorbance | >50 µM |
| Cc1cn([C@H]2C[C@H](N=[N+]=[N-])[C@@H](CO)O2)c(=O)[nH]c1=O |  | 75 µM |
| COc1ccc(COCCSc2nc(Cc3c(F)cccc3F)c(C)c(=O)[nH]2)cc1 |  | >55.87 µM |
| C#Cc1ccc(Nc2nccc(Oc3c(C)cc(-c4cn(CC(=O)Nc5ccc(Br)cc5)nn4)cc3C)n2)cc1 | MTT | 19.78 µM |
| Nc1nc2c(ncn2[C@H]2C=C[C@@H](CO)O2)c(=O)[nH]1 |  | 11 µM |
| [N-]=[N+]=N[C@H]1C[C@H](n2cnc3c(NC4CC4c4ccccc4)nc(N)nc32)O[C@@H]1CO |  | 32 µM |
| CCC(Cc1ccccc1)c1cc(O)c(C(c2cccc(NS(=O)(=O)c3ccc(C#N)cc3)c2)C2CC2)c(=O)o1 |  | >30 µM |
| [N-]=[N+]=N[C@H]1C[C@H](n2cnc3c(=S)nc(N)[nH]c32)O[C@@H]1CO |  | ~80 µM |
| C#Cc1ccc(Nc2nccc(Oc3c(C)cc(-c4cn(Cc5ccc(C(N)=O)cc5)nn4)cc3C)n2)cc1 | MTT | 13.84 µM |
| COc1ccc2nc3cc(Cl)ccc3c(NCCCO)c2c1 | MTT | 59 µM |
| C=C1[C@H](CO)[C@@H](O)C[C@@H]1n1cnc2c(=O)[nH]c(N)nc21 | MTT | >4.59 µM |
| COc1ccc(COCCSc2nc(C(C)c3c(Cl)cccc3Cl)c(C)c(=O)[nH]2)cc1 |  | 39.04 µM |
| Nc1ncnc2c1ncn2[C@H]1CC[C@@H](CO)O1 |  | >250 µM |
| Nc1ccn([C@H]2C=C[C@@H](CO)O2)c(=O)n1 |  | 7.9 µM |
| Nc1ccn([C@H]2CS[C@@H](COC(=O)CP(=O)(O)O)O2)c(=O)n1 |  | 300 µM |
| Cc1cn([C@H]2C[C@H](N=[N+]=[N-])[C@@H](CO)O2)c(=O)[nH]c1=O |  | >93.5 µM |
| CCc1c(Cc2c(F)cccc2F)nc(SCCc2ccc(OC)cc2)[nH]c1=O |  | >60.1 µM |
| [N-]=[N+]=N[C@H]1C[C@H](n2cnc3c(OCc4ccccc4)nc(N)nc32)O[C@@H]1CO |  | >200 µM |
| COCCOCCCc1cc(O)c(C(c2cccc(NS(=O)(=O)c3cn(C)cn3)c2)C2CC2)c(=O)o1 |  | >30 µM |
| Cc1ccnc2c1NC(=O)c1cccnc1N2C1CC1 |  | >100 µM |
| CCC(CCOCCOC)c1cc(O)c(C(c2cccc(NS(=O)(=O)c3cn(C)cn3)c2)C2CC2)c(=O)o1 |  | >30 µM |
| Cc1cn([C@H]2CC[C@@H](CO)O2)c(=O)[nH]c1=O |  | >500 µM |
| Nc1ncnc2c1ncn2[C@H]1CC[C@@H](CO)O1 |  | 890 µM |
| O=C(NCCc1ccc(F)cc1)C1C(=O)N(O)C(=O)c2ccccc21 | MTT | 134 µM |
| O=c1oc(C(CC2CC2)CC2CC2)cc(O)c1C(c1cccc(NS(=O)(=O)c2cccc3cccnc23)c1)C1CC1 |  | >30 µM |
| CONC(=O)c1ccc(NC(=O)CSc2nc3ncccc3n2-c2ccc(C3CC3)c3ccccc23)c(Cl)c1 | MTT | 1.05 µM |
| COc1ncccc1C(=O)c1cc(C)cc(C)c1 | MTT | 7.33 µM |
| CC1CCCCN1CCCNCc1ccc(CN2CCCNCCNCCCNCC2)cc1 | MTT | >25 µg/mL |
| COC(=O)c1ccc(CSc2nc(Cc3c(F)cccc3F)c(C)c(=O)[nH]2)cc1 |  | >34.09 µM |
| CCC(Cc1ccccc1)c1cc(O)c(C(c2cccc(NS(=O)(=O)c3ccc(OC)cc3)c2)C2CC2)c(=O)o1 |  | >30 µM |
| Cc1cn([C@H]2C[C@H](N=[N+]=[N-])[C@@H](CO)O2)c(=O)[nH]c1=O | trypan blue / absorbance | 80 µM |
| Cc1cnc(Nc2ccc(C#N)cc2)nc1C(O)c1ccc2ccccc2c1 | MTT | 6.1 µM |
| Cc1cn([C@H]2CC[C@@H](CO)O2)c(=O)[nH]c1=O |  | >125 µM |
| Cc1cn([C@H]2C[C@H](N=[N+]=[N-])[C@@H](CO)O2)c(=O)[nH]c1=O |  | 27 µM |
| Nc1ccn([C@H]2CC[C@@H](CO)O2)c(=O)n1 | MTT | >94.69 µM |
| [N-]=[N+]=N[C@H]1C[C@H](n2cnc3c(NC4CCC4)nc(N)nc32)O[C@@H]1CO |  | >80 µM |
| O=C(NCCCCl)C1C(=O)N(O)C(=O)c2ccccc21 | MTT | 51 µM |
| CCN(CC)CC(O)CNc1c2ccc(Cl)cc2nc2ccc(OC)cc12 | MTT | 1.7 µM |
| Cc1cn([C@H]2C[C@H](N=[N+]=[N-])[C@@H](CO)O2)c(=O)[nH]c1=O |  | 2.01 µg/mL |
| Cc1cc(C)cc(C(=O)c2cccnc2Nc2ccc(CC#N)cc2)c1 | MTT | 97.46 µM |
| CC(Sc1nc2ncccc2n1-c1ccc(C2CC2)c2ccccc12)C(=O)Nc1ccc(S(N)(=O)=O)cc1Cl | MTT | 3.2 µM |
| Cc1cn([C@H]2C[C@H](N=[N+]=[N-])[C@@H](CO)O2)c(=O)[nH]c1=O | MTT | >7.48 µM |
| [N-]=[N+]=N[C@H]1C[C@H](n2cnc3c(Oc4ccccc4)nc(N)nc32)O[C@@H]1CO |  | >200 µM |
| O=c1ccn([C@H]2C=C[C@@H](CO)O2)c(=O)[nH]1 |  | 27 µM |
| Cc1c(C(C)c2c(Cl)cccc2Cl)nc(SC/C=C/c2ccc([N+](=O)[O-])cc2)[nH]c1=O |  | 40.97 µM |
| COc1ncccc1C(=O)c1cccc(C#N)c1 | MTT | 255 µM |
| COc1ccc2nc3cc(Cl)ccc3c(N[C@@H]3CCCN4CCCC[C@H]34)c2c1 | MTT | 9.3 µM |
| Nc1ccn([C@@H]2CC(CO)(CO)CO2)c(=O)n1 |  | >100 µg/mL |
| Cc1cc(C)cc(C(=O)c2cccnc2Nc2ccc(S(N)(=O)=O)cc2)c1 | MTT | 176 µM |
| Cc1c(Cc2ccc(C#N)cc2)nc(SCc2ccc(C#N)cc2)[nH]c1=O |  | >67.2 µM |
| CC(C)Nc1cccnc1N1CCN(C(=O)c2cc3cc(NS(C)(=O)=O)ccc3[nH]2)CC1 | MTT | >36.19 µM |
| COc1ccc2nc3cc(Cl)ccc3c(NCC[C@@H]3CCCN4CCCC[C@H]34)c2c1 | MTT | 0.7 µM |
| COC(=O)c1ccc(NC(=O)CSc2nc3ncccc3n2-c2ccc(C3CC3)c3ccccc23)c([N+](=O)[O-])c1 | MTT | 2.46 µM |
| Cc1ccnc2c1NC(=O)c1cccnc1N2C1CC1 | MTT | >15.02 µM |
| O=C(CP(=O)(O)O)Nc1ccn([C@H]2CS[C@@H](CO)O2)c(=O)n1 |  | 1000 µM |
| Nc1ccc2c(c1)C(=O)N(O)C(=O)C2C(=O)NCc1ccc(F)cc1 | MTT | 217 µM |
| Cc1cc(C)cc(C(=Nc2ccc(C(N)=O)cc2)c2cccnc2Cl)c1 | MTT | 34.01 µM |
| C#Cc1ccc(Nc2nccc(Oc3c(C)cc(-c4cn(Cc5ccc(C#N)cc5)nn4)cc3C)n2)cc1 | MTT | 7.18 µM |
| Cc1cc(C)cc(C(=O)c2cccnc2Oc2ccc(N)cc2)c1 | MTT | 123 µM |
| C#Cc1ccc(Nc2nccc(Oc3c(C)cc(-c4cn(-c5ccc(C(=O)OC)cc5)nn4)cc3C)n2)cc1 | MTT | >242 µM |
| Nc1ncnc2c1ncn2[C@H]1C=C[C@@H](CO)O1 |  | 49 µM |
| COc1ccc2c(O)c(C(c3cccc(NS(=O)(=O)c4cn(C)cn4)c3)C3CC3)c(=O)oc2c1 |  | >30 µM |
| Nc1ccn([C@H]2CS[C@@H](COP(=O)(O)C(=O)O)O2)c(=O)n1 |  | 1000 µM |
| C#Cc1ccc(Nc2nccc(Oc3c(C)cc(-c4cn(CCC(=O)OC)nn4)cc3C)n2)cc1 | MTT | 23.76 µM |
| Cc1c(C(C)c2c(F)cccc2F)nc(SC2CCCC2)[nH]c1=O |  | >200 µM |
| O=C(NC1CCCC1)C1C(=O)N(O)C(=O)c2ccccc21 | MTT | 128.5 µM |

The first 4 rows once more:

{"compound": "Cc1cn([C@H]2C[C@H](N=[N+]=[N-])[C@@H](CO)O2)c(=O)[nH]c1=O", "read by": "MTT", "result": ">93.55 µM"}
{"compound": "O=c1[nH]cnc2c1ncn2[C@H]1CC[C@@H](CO)O1", "read by": "MTT", "result": ">211 µM"}
{"compound": "COc1cc(/C=C/c2cc[n+]3c(c2)-c2c(c(C)c(C)c4c2-c2cc(/C=C/c5cc(OC)c(OC)cc5COc5ccccc5)cc[n+]2CC4)CC3)c(COc2ccccc2)cc1OC.O=S(=O)([O-])C(F)(F)F.O=S(=O)([O-])C(F)(F)F", "read by": "absorbance", "result": ">50 µM"}
{"compound": "Cc1cn([C@H]2C[C@H](N=[N+]=[N-])[C@@H](CO)O2)c(=O)[nH]c1=O", "result": "75 µM"}